{"source": "paper PMC2492869", "about": "(BMC Microbiology, 2008)", "tested_on": "NC(N)=O", "assay": "purified protein", "conditions": "pH 8.0"}
{"substance": "Brucella suis urease (ure-1 operon) (Brucella suis 1330)", "values": [{"measurement": "Km", "result": "5.60 ± 0.69", "unit": "mM"}]}
